Results taken from US20190298669A1 (priority 2018, published 2019).

System: A/Regensburg/D6/09, H1N1pdm09, RB1
Conditions: per os, 4 treatments every eight hours, PD-03250901 25 mg/kg

O=C(NOC[C@H](O)CO)c1ccc(F)c(F)c1Nc1ccc(I)cc1F [PD-03250901]
virus titer in the lung: potent in reducing virus titer
